According to article PMC8464830 (2021):

Biological target: human Calmodulin-1 (human, UniProt P0DP23 1-149)
Assay: SPR

B1: HIV-1 MA protein from clade B (NL4-3), full-length (natural protein)
chain: MGARASVLSGGELDRWEKIRLRPGGKKKYKLKHIVWASRELERFAVNPGLLETSEGCRQILGQLQPALQTGSEELRSLHNTVAVLYCVHQRIEVKDTKEALEKIEEEQNKSKKTAQQAAADTGNSNKVSQNY
  koff: 0.301 s⁻¹
